Potato spindle tuber viroid, loop 6: variant abundance in plants

Values reported by Wu et al. 2024 (doi:10.1371/journal.ppat.1012142).

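Three N. benthamiana plants were inoculated with the whole mutant pool. Samples came from the inoculated region at 5 days, the leaf margin at 10 and upper systemic leaves at 12.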

Region: loop 6 of PSTVd (intermediate strain), upper and lower strand joined, each 5' to 3', the first 5 letters being the upper strand, closing pairs included. Wild type: UGACCGCGAG. Varied positions (N): UNNNCGNNNG.

Values are reads per thousand in the sample; higher means more abundant, 0 means not found.
Each site shows the three plants.
"Pool" is the share in the plasmid pool used as inoculum, on the same scale.
The inoculated region was read from the minus strand, the other sites from the plus strand.

sequence,pool,inoculated region,leaf margin,systemic leaves
UGCGCGAGCG,0.105,0.122 0.108 0.0369,0 0 0.0232,0 0 0
UGCGCGAGGG,0.170,0.122 0.126 0.184,0 0 0,0 0 0
UGCGCGAGUG,0.105,0.104 0.108 0.0738,0 0 0.0232,0 0 0
UGCGCGAUAG,0.301,0.0869 0.126 0.0369,0 0 0.278,0 0 0
UGCGCGAUCG,0.209,0.156 0.0539 0.129,0 0 0.0232,0 0 0
UGCGCGAUGG,0.275,0.0521 0.108 0.0738,0 0 0,0 0 0
UGCGCGAUUG,0.458,0.0869 0.0539 0.0369,0 0 0,0 0.0202 0
UGCGCGCAAG,0.0392,0.104 0.216 0.111,0 0 0.0928,0 0 0
UGCGCGCACG,0.131,0.191 0.126 0.0922,0 0 0,0 0 0
UGCGCGCAGG,0.222,0.174 0.108 0.0553,0 0 0,0 0 0
UGCGCGCAUG,0.131,0.0695 0.0719 0.0738,0 0 0,0 0 0
UGCGCGCCAG,0.288,0.0869 0.108 0.0553,0 0 0,0 0 0
UGCGCGCCCG,0.248,0.104 0.144 0.0369,0 0 0.0232,0 0 0
UGCGCGCCGG,0.170,0.0869 0.0359 0.0738,0 0 0,0 0 0
UGCGCGCCUG,0.248,0.191 0.0539 0.0553,0 0 0,0 0 0
UGCGCGCGAG,0.222,0.295 0.198 0.240,0 1.01 0.255,0 0 0
UGCGCGCGCG,0.209,0.156 0.0898 0.0369,0 0 0,0 0 0
UGCGCGCGGG,0.222,0.174 0.0180 0.111,0 0 0.0696,0 0 0
UGCGCGCGUG,0.222,0.104 0.0898 0.0738,0 0 0.0232,0 0 0
UGCGCGCUAG,0.105,0.139 0.0898 0.111,0 0 0.0464,0 0 0
UGCGCGCUCG,0.196,0.0695 0.108 0.111,0 0 0,0.0180 0 0
UGCGCGCUGG,0.131,0.139 0.0359 0.0553,0 0.0252 0,0 0 0
UGCGCGCUUG,0.209,0.122 0.0359 0.111,0 0 0,0 0 0
UGCGCGGAAG,0.0654,0.799 0.808 0.479,0 0 0.0232,0 0.0202 0.0205
UGCGCGGACG,0.261,0.104 0.108 0.0553,0 0 0,0 0 0
UGCGCGGAGG,0.170,0.139 0.0898 0.0553,0 0 0.0232,0 0 0
UGCGCGGAUG,0.248,0.209 0.0898 0.0369,0 0.0757 0,0 0 0
UGCGCGGCAG,0.105,0.660 0.557 0.498,0 0.0504 0.0928,0 0 0
UGCGCGGCCG,0.235,0.0521 0.144 0.0738,0 0 0.0232,0 0 0
UGCGCGGCGG,0.144,0.122 0.144 0.0553,0 0 0.0232,0 0 0
UGCGCGGCUG,0.222,0.122 0.0719 0.0553,0 0 0.0232,0 0 0
UGCGCGGGAG,0.209,0.0695 0.126 0.0738,0 0 0,0.0180 0.0404 0.0205
UGCGCGGGCG,0.144,0.139 0.0180 0.0369,0 0 0,0 0 0
UGCGCGGGGG,0.144,0.139 0.0539 0.0553,0 0 0,0 0 0
UGCGCGGGUG,0.222,0.139 0.0898 0.0369,0 0 0.0232,0 0 0
UGCGCGGUAA,0.0131,0.591 0.485 0.424,0 0.227 0.0928,0 0 0
UGCGCGGUAG,0.275,0.608 0.593 0.535,0 0.0757 0.162,0 0 0
UGCGCGGUCG,0.261,0.104 0.0898 0.0922,0 0 0.0232,0 0 0
UGCGCGGUGG,0.275,0.104 0.0539 0.0369,0 0 0,0 0 0
UGCGCGGUUG,0.222,0.139 0.0539 0.0922,0 0 0,0 0 0
UGCGCGUAAG,0.157,0.0695 0.0719 0.0553,0 0 0,0 0 0
UGCGCGUACG,0.288,0.104 0.0359 0.0922,0 0 0.0232,0 0 0
UGCGCGUAGG,0.183,0.0521 0.0359 0.184,0 0 0,0 0 0
UGCGCGUAUG,0.248,0.122 0.0359 0.0922,0 0.177 0.0232,0 0 0

The first 6 entries again:

UGCGCGAGCG (pool 0.105) read inoculated region 0.122 0.108 0.0369; leaf margin 0 0 0.0232; systemic leaves 0 0 0.
UGCGCGAGGG (pool 0.170) read inoculated region 0.122 0.126 0.184; leaf margin 0 0 0; systemic leaves 0 0 0.
UGCGCGAGUG (pool 0.105) read inoculated region 0.104 0.108 0.0738; leaf margin 0 0 0.0232; systemic leaves 0 0 0.
UGCGCGAUAG (pool 0.301) read inoculated region 0.0869 0.126 0.0369; leaf margin 0 0 0.278; systemic leaves 0 0 0.
UGCGCGAUCG (pool 0.209) read inoculated region 0.156 0.0539 0.129; leaf margin 0 0 0.0232; systemic leaves 0 0 0.
UGCGCGAUGG (pool 0.275) read inoculated region 0.0521 0.108 0.0738; leaf margin 0 0 0; systemic leaves 0 0 0.

Sequences that differ at fixed positions probably stem from PCR or sequencing errors, and defective variants can be carried along by functional ones.
Wild type was 20.7 per thousand in the pool and the most common sequence in every sample (inoculated region 195, 198, 203; leaf margin 629, 591, 734; systemic leaves 942, 870, 868).
With 36,220-57,551 reads a sample, very low values are single reads.